Test results taken from patent publication US20250026813A1, “Antibodies against sars-cov-2 and uses thereof” (published 2025).
Substitutions are numbered along the chain they refer to. Values joined by “and” are separate entries in the source; they are usually repeats but may differ in a detail not shown here. Equal values may be shown once.

Assays:
[1] = target: SARS-CoV-2 spike trimer protein (wild type), in the envelope of lentiviral pseudovirus particles (SARS-CoV-2, UniProt P0DTC2 14-1273); test: cell-based or functional assay
[2] = target: SARS-CoV-2 spike protein of the WA-1 strain live virus (carrying D614G) (SARS-CoV-2, UniProt P0DTC2 14-1273); test: cell-based or functional assay

B1: IMPI-032 (antibody, V domains shown)
VH: QVQLQESGPGLVKPSGTLSLTCAVSGGSISSNKWWSWVRQPPGKGLEWIGEIDHSGSTMYNPSLKSRVTISVDKSKNQFSLKLNSVTAADTAVYYCTGEGYNWNYWGQGTRVTVSS
VL: DVVMTQSPLSLPVTLGQTASISCRSSQSLLYTDGNTYLSWFQQRPGQSPRRLIYKVSKWESGVPDRFSGSGSGTDFTLKISRVEAEDVGIYYCMQGTHWPLTFGGGTKVEIK
B1 was tested. Which “Fold change relative to SAD S35 antibody” value [1] did it give?
The value was 0.27 fold.

What about the “pseudovirus neutralisation IC50” value [1] of the same binder?
Its value is 14900 pM and 2.23 ug/ml.

B2: IMPI-059 (antibody, V domains shown)
VH: EVQLVESGGGLIQPGGSLRLSCAASGFTVSSIYMSWVRQAPGKGLEWVSIIYSRGSTDYADSVKGRFTISRDISKNTLYLQMNSLRAEDTAVYYCARDGTMVRGVHAFDIWGQGTMVTVSS
VL: DIQMTQSPPSLSASIGDRVTITCQASQDISNYLNWYQQKPGKAPKLLIYDASNLETGVPSRFSGSGSGTDFTLTISNLQPEDIVTYYCQQYDNLPSSFGQGTKLEIK
Which results are given for B2?
Fold change relative to SAD S35 antibody [1]: 1410 fold; pseudovirus neutralisation IC50 [1]: 0.0005 ug/ml and 3.2 pM

B3: IMPI-027 (antibody, V domains shown)
VH: QVQLQESGPGLVKPSQTLSLTCTVSGGSISSYGYYWNWIRQHPGKGLEWIGYIYYSGSTYYNPSLKSRVTISVDTSKNQLSLRLNSVSAADTAVYYCARDFGGNSNYFDYWGQGTLVTVSS
VL: AIQLTQSPSSLSASVGDRVTITCRTSQGISSALAWYQQKPGKAPKLLIYDASSLESGVPSRFSGSGSGTDFTLTISSLQPEDFATYYCQQFNSYPLTFGGGTKVEIK
B3 was tested. Which “Fold change relative to SAD S35 antibody” value [1] did it give?
Its value is 0.13 fold.

What about the “pseudovirus neutralisation IC50” value [1] of the same binder?
The value was 31600 pM and 4.75 ug/ml.

B4: IMPI-017 (antibody, V domains shown)
VH: EVQLVESGGGLIQPGGSLRLSCAAAGLTVSSNYMNWVRQVPGKGLEWVSVIYSGGSTYYADSVKGRFTISRDNSKNTLYLQMNSLRAEDTAVYYCARDLGTLGMDVWGQGTTVTVSS
VL: DIQLTQSPSFLSASVGDRVTITCWASQGISTYLAWYQQKPGKAPKLLIYAASTLQSGVPSRFSGSGSGTEFTLTISSLQPEDFATYYCQQLNSYLPTFGQGTKVEIK
How did the “Fold change relative to SAD S35 antibody” value [1] turn out when B4 was run?
The value was 502 fold.

What about the “pseudovirus neutralisation IC50” value [1] of the same binder?
The value was 9 pM and 0.0013 ug/ml.

B5: IMPI-021 (antibody, V domains shown)
VH: B4 VH with A25S, L27V, N35S, V40A, Y58F, G100S, T101Y, L102Y
VL: B4 VL with T31S, R61K, L95P, P96C, T97S, V104L
With B5 as the binder, how does the “Live virus WA-1 strain IC50” value [2] read?
Its value is 3 ng/mL.

B6: IMPI-055 (antibody, V domains shown)
VH: QVQLVQSGAEVKKPGASVKVSCKASGYTFTSYDINWVRQATGQGLEWMGWMNPNSGNTGYAQKFQGRVTMTRDTSINTAYMELSSLRSEDTAVYFCARGGRYCSDVTCYSGEPFDYWGQGTLVTVSS
VL: EIMLTQSPDFQSVTPKEKVTITCRASQSIGSSLHWYQQKPDQSPKLLIKFASQSISGVPSRFSGSGSGTDFTLTINSLEAEDAAAYYCHQSSSLPHTFGPGTKVEIK
For B6, which “Fold change relative to SAD S35 antibody” value [1] is on record?
Its value is 125 fold.

What about the “pseudovirus neutralisation IC50” value [1] of the same binder?
Its value is 36.2 pM and 0.0054 ug/ml.

B7: IMPI-029 (antibody, V domains shown)
VH: B4 VH with A25S, L27V, V40A, Y79F, T90S, T101P, L102Y, M104V
VL: B4 VL with T31S, Q90E, L95P, P96L, K103R, V104L
Which “Fold change relative to SAD S35 antibody” value [1] does the source give for B7 here?
The value was 104 fold.

What about the “pseudovirus neutralisation IC50” value [1] of the same binder?
Its value is 43.3 pM and 0.0065 ug/ml.

B8: IMPI-047 (antibody, V domains shown)
VH: B4 VH with A25S, L27F, V40A, A87T, G100V, T101A, L102Y
VL: B4 VL with T31S, L46V, Q90L, Y94N, L95P, P96L, Q100G
How did the “Fold change relative to SAD S35 antibody” value [1] turn out when B8 was run?
Its value is 51.7 fold.

And the “pseudovirus neutralisation IC50” value [1]?
The value was 87.2 pM and 0.0131 ug/ml.

B9: IMPI-054 (antibody, V domains shown)
VH: EVQLVESGGGLIQPGGSLRLSCAASGLTVSSNYMSWVRQAPGKGLEWVSIIYSGGSTYYADSVKGRFTISRDNSKNTLYLQMNSLRAEDTAVYYCARLGGYYYYGMDVWGQGTTVTVSS
VL: DIQMTQSPSSLSASVGERVTITCQASQDIRNYLNWYQKKPGKAPKLLIYDSSNLETGVPSRFSGSGSGTDFTFTISSLQPEDIATYYCQQYDNLPITFGQGTRLEIK
How did the “Fold change relative to SAD S35 antibody” value [1] turn out when B9 was run?
Its value is 47.7 fold.

And the “pseudovirus neutralisation IC50” value [1]?
The value was 94.5 pM and 0.0142 ug/ml.

B10: IMPI-021 (antibody, V domains shown)
VH: B4 VH with A25S, L27V, N35S, V40A, Y58F, G100S, T101Y, L102Y
VL: B4 VL with T31S, R61K, L95P, P96C, T97S, V104L
With B10 as the binder, how does the “Fold change relative to SAD S35 antibody” value [1] read?
The value was 24.3 fold.

What about the “pseudovirus neutralisation IC50” value [1] of the same binder?
The value was 164 pM and 0.0246 ug/ml.

B11: IMPI-005 (antibody, V domains shown)
VH: B4 VH with A25S, L27F, V40A, Y79F, T90S, T101P, L102Y, M104V
VL: B4 VL with T31S, Q90E, L95P, P96L, K103R, V104L
How did the “pseudovirus neutralisation IC50” value [1] turn out when B11 was run?
Its value is 530 pM and 0.0796 ug/ml.

B12: IMPI-042 (antibody, V domains shown)
VH: B9 VH
VL: B9 VL with S65G
B12 was tested. Which “Fold change relative to SAD S35 antibody” value [1] did it give?
Its value is 2.77 fold.

What about the “pseudovirus neutralisation IC50” value [1] of the same binder?
Its value is 1440 pM and 0.216 ug/ml.

B13: IMPI-060 (antibody, V domains shown)
VH: B4 VH with A25S, L27V, N35S, V40A, Y58F, G100S, T101Y, L102Y
VL: B4 VL with T31S, R61K, L95P, P96S, T97S, V104L
B13 was tested. Which “Fold change relative to SAD S35 antibody” value [1] did it give?
The value was 0.73 fold.

And the “pseudovirus neutralisation IC50” value [1]?
Its value is 6170 pM and 0.925 ug/ml.

B14: IMPI-024 (antibody, V domains shown)
VH: EVQLVQSGAEVKKPGESLKISCKGSGYSFTSYWIGWVRQMPGKGLEWMGIIYPGDSDTRYSPSFQGQVTISADKSISTAYLQWSSLKASDTAMYYCVRSYNWNYFDYWGQGTLVTVSS
VL: B3 VL with T25A, A32G, P40A, A51V, N92L, L96W, G100Q
With B14 as the binder, how does the “Fold change relative to SAD S35 antibody” value [1] read?
Its value is 0.58 fold.

And the “pseudovirus neutralisation IC50” value [1]?
Its value is 6850 pM and 1.03 ug/ml.

B15: IMPI-063 (antibody, V domains shown)
VH: EVQLVESGGGVVRPGGSLRLSCAASGFTFDDYGMSWVRQAPGKGLEWVSGIYWNGGSTGYADSVKGRFTISRDNAKNSLYLQMNSLRAEDMALYYCARGVGATDYWGQGTLVTVSS
VL: EIVLTQSPGTLSLSSGERATLACRASESVRGSFLAWYQQKPGQAPRLLIYGASRRATGIPDRFSGSGSGTDFTLTISRLEPEDFAVYYCQQYGNSPMCSFGQGTKLEIK
Which “Fold change relative to SAD S35 antibody” value [1] does the source give for B15 here?
Its value is 0.35 fold.

What about the “pseudovirus neutralisation IC50” value [1] of the same binder?
The value was 9980 pM and 1.5 ug/ml.
